Measured values from several laboratories, pooled; numbers as filed in NIAID ChemDB.

Common to all: whole-cell or culture tests; agent: Hepatitis B virus; method: PCR; endpoint: EC50

Lines come from different laboratories, so protocols vary. Two numbers with a dash give a range or band. Blank or dashed fields: not listed here. ECn: concentration that inhibits the pathogen or its effect by n%.

structure | cells | strain or isolate | value
Cc1cc(NC(=O)c2c3c(c(C)n2C)C(=O)NC(C)(C)CC3)ccc1F | HepAD38 | - | <0.05 µM
COc1ccc(-n2cc(S(=O)(=O)Nc3ccc4c(C(=O)Nc5ccc(F)c(Cl)c5)n(C)nc4c3)cn2)nc1 | HepAD38 | - | <100 µM
Cc1c2c(c(C(=O)Nc3cccc(Cl)c3)n1C)CCC(C)(C)NC2=O | HepAD38 | - | 0.05–0.499 µM
O=C1NC(=O)/C(=C/c2ccc(-c3ccc(C(=O)Nc4ccccc4)cc3)cc2)S1 | HepG2-NTCP | Genotype D | >10 µM
CN1[C@H](C(=O)Nc2ccc(F)c(Cl)c2)C[C@H](c2ncc(-c3cn(C)cn3)s2)NS1(=O)=O | - | Genotype D | 0.0101 µM
Cc1c(C(=O)C(=O)NC(C)(C)c2cnn(C3CC3)c2)c(C)n(C)c1C(=O)Nc1ccc(F)c(C(F)(F)F)c1 | HepG2.2.15 | - | 0.001–0.0099 µM
Cc1c2c(c(C(=O)Nc3ccc(F)c(F)c3)n1C)CCC(C)NC2=O | HepAD38 | - | 0.5–1 µM
C=C[C@@](CO)(NC(=O)C(=O)c1c(C)c(C(=O)Nc2ccc(F)c(C(F)(F)F)c2)n(C)c1C)C(F)(F)F | HepG2.2.15 | - | 0.001–0.0099 µM
CCCCCCCCCCCCCC(=O)Nc1nc(N)nc2c1ncn2[C@H]1CO[C@@H](COP(=O)(N[C@@H](C)C(=O)OCC)Oc2ccccc2)O1 | HepAD38 | - | 0.39 µM
C/C=C(/C)C(=O)O[C@@H]1c2cc(OC)c(OC)c(OC)c2-c2c(cc3c(c2OC)OCO3)C[C@H](C)[C@@]1(C)O | HepG2.2.15 | - | 12.7 µg/mL
COc1ccc(-n2c(C(=O)CNc3ccc(C(N)=O)cc3)c3n(c2=O)CCN(C(=O)c2ccc(Cl)c(Cl)c2)C3)cc1 | HepG2.117 | - | >5 µM
Cn1nc2cc(NS(=O)(=O)c3cnn(-c4cccnc4N)c3)ccc2c1C(=O)Nc1ccc(F)c(Cl)c1 | HepAD38 | - | 100–1000 µM
C=CCNC(=O)C(=O)c1c(C)c(C(=O)Nc2ccnc(Br)c2F)n(C)c1C | HepG2.2.15 | - | 0.01–0.099 µM
Cc1c2c(c(C(=O)Nc3ccc(F)c(F)c3)n1C)CCC(C)(C)NC2=O | HepAD38 | - | <0.05 µM
NC(=O)COc1ccc(CNC(=O)c2c3n(c(=O)n2-c2ccc(OC4CC4)cc2)CCN(C(=O)c2ccc(Br)c(Cl)c2)C3)c(F)c1 | HepG2.117 | - | 0.1–0.5 µM
C[C@H](Cn1cnc2c(N)ncnc21)OCP(=O)(O)O | HepG2.2.15 | - | 2.54 µM
C[C@@H]1Cc2nn3c(c2CN1C(=O)c1ccc(Cl)c(Cl)c1)C(=O)N([C@@H](C)c1ccc(NS(C)(=O)=O)cc1)CC3 | HepG2.117 | - | 0.045 µM
O=C1NC(=O)/C(=C/c2ccc(-c3ccc(-c4ccccc4)cc3)cc2)S1 | HepG2-NTCP | Genotype D | >10 µM
C[C@H](Cn1cnc2c(N)ncnc21)OCP(=O)(O)O | HepG2.2.15 | - | 0.9 µg/mL
C[C@H](NS(=O)(=O)Nc1ccc2c(C(=O)Nc3ccc(F)c(Cl)c3)n(C)nc2c1)c1ccccn1 | HepAD38 | - | 100–1000 µM
O=C(NCc1ccccc1)c1c2n(c(=O)n1-c1ccc(OC3CC(F)(F)C3)cc1)CCN(C(=O)c1ccc(Br)c(Cl)c1)C2 | HepG2.117 | - | 0.5–5 µM
C#CC1(NC(=O)C(=O)c2c(C)c(C(=O)Nc3ccc(F)c(C#N)c3)n(C)c2C)CCC1 | HepG2.2.15 | - | <0.001 µM
C[C@@H](NC(=O)C(=O)N1CC[C@]2(COc3c(c(Cl)n(C)c3C(=O)Nc3ccc(F)c(Cl)c3)S(=O)(=O)N2)C1)C(F)(F)F | HepAD38 | Genotype D | <0.5 µM
O=C(c1ccc(Cl)c(Cl)c1)N1CCc2nn3c(c2C1)-c1nccn1CCC3 | HepG2.117 | - | 0.265 µM
COc1ccccc1-c1ccc(-c2ccc(/C=C3\SC(=O)NC3=O)cc2)cc1 | HepG2-NTCP | Genotype D | 3.5 µM
CCOC(=O)[C@H](C)NP(=O)(OC[C@@H]1OC[C@H](n2cnc3c(N)nc(N)nc32)O1)Oc1ccccc1 | HepAD38 | - | 0.3 µM
C#CC1(NC(=O)C(=O)c2c(C)c(C(=O)Nc3ccc(F)c(C#N)c3)n(C)c2C)CC(F)(F)C1 | HepG2.2.15 | - | <0.001 µM
C[C@H](Cn1cnc2c(N)ncnc21)OCP(=O)(O)O | HepG2.2.15 | - | 0.53 µg/mL
Cc1ccnc(-n2cc(S(=O)(=O)Nc3ccc4c(C(=O)Nc5ccc(F)c(Cl)c5)n(C)nc4c3)cn2)c1 | HepAD38 | - | <100 µM
C[C@H](NC(=O)C(=O)N1CCC2(COc3c(c(Cl)n(C)c3C(=O)Nc3ccc(F)c(F)c3)S(=O)(=O)N2)C1)C(F)(F)F | HepAD38 | Genotype D | <0.5 µM
CC(=O)Nc1ccc([C@H](C)N2CCn3nc4c(c3C2=O)CN(C(=O)c2ccc(Cl)c(Cl)c2)[C@H](C)C4)cc1 | HepG2.117 | - | 0.044 µM
Cc1cc(C)n(-c2nc3c(c(=O)n2-c2ccc(NC4CC(O)C4)nc2)C[C@@H](C)N(C(=O)c2ccc(Br)c(C(F)(F)F)c2)C3)n1 | HepG2.117 | Genotype D | ≤0.05 µM
Cn1cc2c(c1C(=O)Nc1ccc(F)c(C(F)F)c1)OC[C@@]1(CCN(C(=O)C(=O)NC(C)(C)C(F)(F)F)C1)NS2(=O)=O | HepAD38 | Genotype D | <0.5 µM
O=C(NCc1ccccc1)c1c2n(c(=O)n1-c1ccc(-n3cncn3)cc1)CCN(C(=O)c1ccc(Br)c(Cl)c1)C2 | HepG2.117 | - | 0.5–5 µM
CCCCCCCCCC(=O)Nc1nc(N)nc2c1ncn2[C@H]1CO[C@@H](COP(=O)(N[C@@H](C)C(=O)OCC)Oc2ccccc2)O1 | HepAD38 | - | 0.43 µM
Cn1cc2c(c1C(=O)Nc1ccc(F)c(Cl)c1)OC[C@]1(CCN(C(=O)C(=O)NCC(F)(F)F)C1)NS2(=O)=O | HepAD38 | Genotype D | <0.5 µM
Cn1nc2cc(NS(=O)(=O)c3cnn(CC4CN(C(=O)OC(C)(C)C)C4)c3)ccc2c1C(=O)Nc1ccc(F)c(Cl)c1 | HepAD38 | - | 100–1000 µM
CC(=O)Nc1cccc([C@@H](C)N2CCn3nc4c(c3C2=O)CN(C(=O)c2ccc(Cl)c(Cl)c2)[C@H](C)C4)c1 | HepG2.117 | - | 0.015 µM
C[C@@H](NC(=O)C(=O)N1CCC2(CC1)COc1c(cn(C)c1C(=O)Nc1ccc(F)c(C(F)F)c1)S(=O)(=O)N2)C(F)(F)F | HepAD38 | Genotype D | <0.5 µM
CNc1ccc(-n2c(C(=O)NCc3ccccc3)c3n(c2=O)CCN(C(=O)c2ccc(Br)c(Cl)c2)C3)cc1 | HepG2.117 | - | 0.1–0.5 µM
C/C=C(/C)C(=O)Oc1c(OC)c(OC)cc2c1-c1c(cc(OC)c(OC)c1OC)C[C@H](C)[C@H](C)C2 | HepG2.2.15 | - | 5.13 µg/mL
C#CCNC(=O)C(=O)c1cc(C(=O)Nc2ccc(F)c(C#N)c2)n(C)c1Cl | HepG2.2.15 | - | 0.1–0.999 µM
CCC[C@H](Nc1nc(-c2ccc(NC(=O)NCC)c(OC)c2)ncc1C)c1cccnc1 | HepG2 2.2.15 | Genotype D | 0.0601 µM
Cc1cc(C)n(-c2nc3c(c(=O)n2-c2cc(F)c4ncn(C)c4c2)C[C@@H](C)N(C(=O)c2ccc(Br)c(C(F)(F)F)c2)C3)n1 | HepG2.117 | Genotype D | ≤0.05 µM
COc1ccc2c(=O)c(/C=C/C(=O)NCc3ccccc3)coc2c1 | HepG2 2.2.15 | - | >56.81 µM
Cn1cc(S(=O)(=O)CNc2ccc3c(C(=O)Nc4ccc(F)c(Cl)c4)n(C)nc3c2)cn1 | HepAD38 | - | 100–1000 µM
Cc1cc(C)n(-c2nc3c(c(=O)n2-c2ccc(NC[C@@H](C)O)nc2)C[C@@H](C)N(C(=O)c2ccc(Br)c(C(F)(F)F)c2)C3)n1 | HepG2.117 | Genotype D | ≤0.05 µM
O=C1NC(=O)/C(=C/c2ccc(-c3ccccc3)cc2)S1 | HepG2-NTCP | Genotype D | 21.4 µM
C[C@@H](NC(=O)C(=O)N1CC[C@]2(COc3c(cn(C)c3C(=O)Nc3ccc(F)c(Cl)c3)S(=O)(=O)N2)C1)C(F)(F)F | HepAD38 | Genotype D | <0.5 µM
COc1ccc(-n2c(C(=O)NCc3ccc(OC)cc3C3CC3)c3n(c2=O)CCN(C(=O)c2ccc(Br)c(Cl)c2)C3)cc1 | HepG2.117 | - | 0.1–0.5 µM
CCCC(=O)Nc1nc(N)nc2c1ncn2[C@H]1CO[C@@H](COP(=O)(N[C@@H](C)C(=O)OCC)Oc2ccccc2)O1 | HepAD38 | - | 3.3 µM
Cc1ccc(F)c(NC(=O)c2c3c(c(C)n2C)C(=O)NC(C)(C)CC3)c1 | HepAD38 | - | <0.05 µM
Cn1nc2cc(C(=O)Nc3cnn(-c4ccccn4)c3)ccc2c1C(=O)Nc1ccc(F)c(Cl)c1 | HepAD38 | - | 100–1000 µM
Cc1c(C(=O)Nc2ccc(F)c(F)c2)c2c(n1C)C(=O)NC(C)(C)CC2 | HepAD38 | - | 0.05–0.499 µM
C[C@@H](NC(=O)C(=O)N1CC[C@@]2(COc3c(c(Cl)n(C)c3C(=O)Nc3ccc(F)c(C(F)F)c3)S(=O)(=O)N2)C1)C(F)(F)F | HepAD38 | Genotype D | <0.5 µM
COc1ccc([C@@H](C)NC(=O)c2c3n(c(=O)n2-c2ccc(OC4CC4)cc2)CCN(C(=O)c2ccc(Br)c(Cl)c2)C3)c(F)c1 | HepG2.117 | - | <0.1 µM
Cc1c(C(=O)C(=O)NC(C)(C)c2ccccn2)c(C)n(C)c1C(=O)Nc1ccc(F)c(C#N)c1 | HepG2.2.15 | - | 0.001–0.0099 µM
C[C@@H]1Cc2nn3c(c2CN1C(=O)c1ccc(Cl)c(C#N)c1)C(=O)N(Cc1ccc(S(F)(F)(F)(F)F)cc1)CC3 | HepG2.117 | - | 0.113 µM
Cc1cc(C)n(-c2nc3c(c(=O)n2-c2ccc(N4CCN(C)CC4)nc2)C[C@@H](C)N(C(=O)c2ccc(Br)c(C(F)(F)F)c2)C3)n1 | HepG2.117 | Genotype D | ≤0.05 µM

Repeating the final 8 entries:

structure | cells | strain or isolate | value
Cc1ccc(F)c(NC(=O)c2c3c(c(C)n2C)C(=O)NC(C)(C)CC3)c1 | HepAD38 | - | <0.05 µM
Cn1nc2cc(C(=O)Nc3cnn(-c4ccccn4)c3)ccc2c1C(=O)Nc1ccc(F)c(Cl)c1 | HepAD38 | - | 100–1000 µM
Cc1c(C(=O)Nc2ccc(F)c(F)c2)c2c(n1C)C(=O)NC(C)(C)CC2 | HepAD38 | - | 0.05–0.499 µM
C[C@@H](NC(=O)C(=O)N1CC[C@@]2(COc3c(c(Cl)n(C)c3C(=O)Nc3ccc(F)c(C(F)F)c3)S(=O)(=O)N2)C1)C(F)(F)F | HepAD38 | Genotype D | <0.5 µM
COc1ccc([C@@H](C)NC(=O)c2c3n(c(=O)n2-c2ccc(OC4CC4)cc2)CCN(C(=O)c2ccc(Br)c(Cl)c2)C3)c(F)c1 | HepG2.117 | - | <0.1 µM
Cc1c(C(=O)C(=O)NC(C)(C)c2ccccn2)c(C)n(C)c1C(=O)Nc1ccc(F)c(C#N)c1 | HepG2.2.15 | - | 0.001–0.0099 µM
C[C@@H]1Cc2nn3c(c2CN1C(=O)c1ccc(Cl)c(C#N)c1)C(=O)N(Cc1ccc(S(F)(F)(F)(F)F)cc1)CC3 | HepG2.117 | - | 0.113 µM
Cc1cc(C)n(-c2nc3c(c(=O)n2-c2ccc(N4CCN(C)CC4)nc2)C[C@@H](C)N(C(=O)c2ccc(Br)c(C(F)(F)F)c2)C3)n1 | HepG2.117 | Genotype D | ≤0.05 µM